Results as given in ChEMBL document CHEMBL3351542, “Nonpeptide small molecule agonist and antagonist original leads for neuropeptide FF1 and FF2 receptors” (J Med Chem, 2014).

Key:
Homo sapiens [1] = organism: Homo sapiens; assay: Selectivity ratio of Ki for human MOR to Ki for human NPFF2 receptor
Homo sapiens [2] = organism: Homo sapiens; assay: Selectivity ratio of Ki for human NPFF2 receptor to Ki for human NPFF1 receptor
Homo sapiens [3] = organism: Homo sapiens; assay: Selectivity ratio of Ki for human DOR to Ki for human NPFF1 receptor

SMILES | Ratio Ki (Homo sapiens [1]) | Ratio Ki (Homo sapiens [2]) | Ratio Ki (Homo sapiens [3])
N=C(N)NCC(=O)NCC1(Cc2ccccc2)CCN(Cc2ccccc2)CC1 | 2 | – | –
N=C(N)NCCC[C@H](N)C(=O)NCC1(Nc2ccccc2)CCN(Cc2ccccc2)CC1 | – | 2.2 | –
N=C(N)NCC(=O)NCC1(Nc2cccc3ccccc23)CCN(Cc2ccccc2)CC1 | – | 3.3 | –
COc1cc(NC2(CNC(=O)CNC(=N)N)CCN(Cc3ccccc3)CC2)cc(OC)c1 | – | 8.7 | –
N=C(N)NCCNC(=O)C1(Nc2ccccc2)CCN(Cc2ccccc2)CC1 | – | 17.6 | > 18
